Assay results from PMC6455253.

By UniProt entry, the sequences of proteins in these tests, tags left out. Where a name states a change or a piece, a line headed by the entry shows the natural chain unless it says otherwise.
UniProt Q9KJN4: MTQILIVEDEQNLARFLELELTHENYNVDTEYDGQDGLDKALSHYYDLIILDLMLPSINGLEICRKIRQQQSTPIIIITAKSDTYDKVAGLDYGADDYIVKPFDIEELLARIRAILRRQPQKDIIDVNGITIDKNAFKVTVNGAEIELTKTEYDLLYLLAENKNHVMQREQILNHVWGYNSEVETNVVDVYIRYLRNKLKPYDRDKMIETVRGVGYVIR

Molecular target: rArlR (phosphorylated with acetylphosphate) (Staphylococcus aureus USA300 TCH1516) (UniProt Q9KJN4)
Assay: EMSA
Details: 0.5-2 ug rArlR, 0.4 ng DNA, DIG Gel Shift Kit (Roche) per manufacturer, 25 C, 30 min, 6% non-denaturing PAGE, salt and pH not stated, recombinant protein, protein details: His (pET-28a, XbaI/XhoI), label: digoxigenin (DIG-ddUTP), probe letters rebuilt from the primers and the genome

“TAATTATCATTATAACAGTATTTCTTAAAAATGTAAGATGTGTTAGAATATACGTATAACTTACTACTAACAAAGGGATTAATAATCTTTTTTATAAGTGTAGAAACTTATCTGAAAAATTAGGTTTTTCTCATTTAATTTTAATG (double strand) [Pspx 146 bp]”: binds.

For at least one entry, the source does not settle the construct or the ends of the probe.
